Data reported in US9187529B2 (priority 2011, dated 2015).

Details: rabbits, 200 μl/day of 1.0 μg/mL peptide in aqueous gel, examined after 7 days

CC(C)C[C@H](NC(=O)[C@H](CC(=O)O)NC(=O)[C@H](CCCCN)NC(=O)[C@H](Cc1c[nH]cn1)NC(=O)[C@@H]1CCCN1C(=O)[C@H](CCCCN)NC(=O)[C@H](Cc1ccc(O)cc1)NC(=O)[C@@H](NC(=O)[C@H](CCCCN)NC(=O)[C@H](CCCCN)NC(=O)[C@H](CCCCN)NC(=O)[C@@H]1CCCN1C(=O)[C@H](CCCCN)NC(=O)[C@@H](N)CO)[C@@H](C)O)C(=O)N[C@@H](CO)C(=O)N[C@@H](Cc1c[nH]cn1)C(=O)NCC(=O)N[C@@H](CO)C(=O)N[C@@H](C)C(=O)N[C@@H](CCCCN)C(=O)N[C@@H](CCCCN)C(=O)N[C@@H](CCCCN)C(=O)O
signs of inflammation and vaginal irritation: No irritation or inflammation was observed
